Our source for the activity change, negative = inhibition values is PubChem BioAssay AID602233 (National Center for Advancing Translational Sciences (NCATS), 2012).

Structures are written as SMILES. Only a part is listed here, and it is no random draw. Activity calls are given as the source filed them. Calls come from the whole dose curve; as a rule, active = well fitted inhibition curve with a large enough effect; inconclusive = small, poorly fitted or top-dose-only effect; inactive = no such curve, though single readings can be large or run the other way.
% is set by controls: 0 for no effect and ±100 for the full control effect.

The assay addresses Phosphoglycerate kinase, glycosomal (Trypanosoma brucei brucei) (UniProt P07378). Briefly: qHTS Assay to Find Inhibitors of Phosphoglycerate Kinase. Note: nearly all actives have a fitted effect of over 60% in size. Conditions: PGK/GAPDH coupled, Kinase-Glo luminescence, 60 min; at 57.5 µM (top of the series). The text has this:
Several species of the Trypanosomatidae family of parasitic protozoans cause a spectrum of diseases throughout the tropical and subtropical world. Sleeping sickness, caused by two subspecies of Trypanosoma brucei, is endemic to areas of sub-Saharan Africa, while Chagas disease, a manifestation of Trypanosoma cruzi infection, is prevalent throughout Central and South America. In addition, many species of Leishmania are responsible for a range of cutaneous and visceral diseases, causing ulcers, destructive lesions and kalaazar, a lethal infection of the viscera. Collectively, these organisms infect 30 million people worldwide (~500 million live in endemic areas), and account for ~130,000 deaths annually. Given their debilitating and prevalent nature, trypanosomatid parasites impose a heavy medical, economic and social burden on entire populations, primarily in the developing world. […]
3ul of substrate/PGK buffer (columns 1,2,5-48) are dispensed into Greiner white solid bottom 1536-well assay plates; columns 3-4 receive only TEA buffer as 0x PGK controls. […] Kinase-Glo Plus reagent is added (2ul) and plates incubated for 10 minutes, before being transferred to a ViewLux high-throughput CCD imager (PerkinElmer) wherein single end-point measurements of luminescence are acquired using a clear filter. […]
A general note: In qHTS, concentration-response curves come from the screen itself.
For the compound `O=C(O)c1ccccc1[As](=O)(O)O`, the activity change, negative = inhibition is inactive: 5.03%.
